Data taken from US5380646A, “Thrombus detection using radiolabelled disintegrins” (Temple University of the Commonwealth System of Higher …, priority 1992, dated 1995).

System: femoral clot
Test: Comparison of short Arg-Gly-Asp peptides to disintegrins in dog, femoral clot (Example 7)
Format: in vivo
Protocol: In this example of thrombi and emboli in a dog, the radioactivity target:background ratios were determined qualitatively by imaging and quantitatively by tissue sampling. Higher ratios are due to the increased target specificity of the radiolabel carrier. Significant measurements presented in this study are the relative ratio of counts from the target tissue (thrombus and pulmonary emboli) to background entities (muscle, vessels blood etc.). […] Thrombus uptake data, such as the percent injected radiolabel dose per gram of thrombus (% id/g thrombus), thrombus-to-blood (=100×% id/g thrombus.div.%id/g blood) and thrombus-to-muscle ratios (=100×%id/g thrombus.div.%id/g muscle) were calculated from the tissue sample count data discussed below.
A female mongrel dog weighing 40 lbs was fasted overnight. The dog was sedated with an intramuscular injection of a mixture of ketamine hydrochloride and acepromazine maleate. General anesthesia was induced with intravenous pentobarbital (20 mg/kg). After shaving and washing the dog's skin, a 3-cm incision was made in the right groin area. Using blunt dissection, a segment of the femoral vein was located and freed from surrounding tissue for a length of 1 inch. An 18-guage angiocath was inserted into the vein, and floppy-tip guide wire was advanced through the angiocath into the vein and advanced to mid-femur (approximately 3 inches). The angiocath was replaced with a longer catheter which extended over the guidewire to mid-thigh. The guidewire was then withdrawn and an embolization coil, consisting of a stainless steel spring enmeshed with Dacron fibers and capable of expanding to a diameter of 8 mm (Cook, Bloomington, Ind.) was introduced into the catheter. The coil was advanced with the guidewire until it emerged from the distal end of the catheter, where it promptly expanded and lodged firmly in the vessel. The catheter and guide wire were withdrawn. The incision was closed with 2-0 silk. This produced a model of deep venous thrombosis.
Twenty-four hours after placement of the coils, anesthesia was induced as before. The urinary bladder was catheterized to collect urine. A large field of view gamma camera (General Electric, Milwaukee, Wis.) was positioned over the dog for an anterior view of the chest. The camera was fitted with a low-energy all-purpose collimator and was set to acquire the 159 keV photopeak of ^123 I with a 20% window. A Macintosh IIx computer was interfaced to the camera using a NucLear Mac A/D board and software (Scientific Imaging, Denver, Colo.). The following radiotracers were injected into a right foreleg vein: 31 μCi of ^125 I-fibrinogen (358 μg), followed by a saline flush and an injection of 4.4 mCi of ^123 I-Bitistatin (90 μg). The ^125 -fibrinogen served as a control, since it has been studied previously in this dog model.
At 2 hours and 45 min. post injection, deep anesthesia was induced by intravenous administration of 30 mg/kg pentobarbital. A blood sample was drawn and 0.3 cc was transferred into each of two pre-weighed tubes. The animal was euthanized with intracardiac injection of KCl saturated solution. The vein segment containing the thrombus was carefully removed and dissected to separate the thrombus, coil, Dacron fibers and vessel wall. Each of these samples was placed on tared paper and weighed (wet weight). […] Each sample was then placed in a counting tube and counted along with a saved aliquot of the injected dose as a standard, in a well counter. […]

^123 I-albolabrin: albolabrin, disintegrin from Trimeresurus albolabris, radioiodinated with ^123 I
AV:CV abnormal (injured) vessel:control vessel label ratio (FC, 4 hrs): 1.3
Percent Injected Dose Per Gram of Thrombus (FC, 4 hrs): 0.0714 % id/g
T:B thrombus:blood ratio (FC, 4 hrs): 9.9
T:M thrombus:muscle ratio (FC, 4 hrs): 42.5
target:background ratios versus medically acceptable range for imaging (T:B at least 4:1 in extremities, 9:1 in chest): medically significant background ratios for imaging of thrombi
